PMC3157426 (PLoS ONE, 2011)

Target: NWS/G70C H1N9 wild type NA (Influenza A virus, UniProt P03472)
Details: G70C H1N9 wt; IC50s with versus without preincubation

2-deoxy,2,3-dehydro N-acetyl neuraminic acid
binding phenotype (slow or fast binding): fast binding
